PubChem BioAssay AID1259414 – Drosophila RNAi Screening Center – 2018

Test: 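Genome-wide screen for host control of endosymbiont load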 (primary screen)
Cells: Drosophila JW18 cells infected with Wolbachia
Reagent: long dsRNA against Drosophila genes, 0.25 µg dsRNA per well of a 384-well plate
Timing: 5 days
Conditions: cells persistently infected with Wolbachia before knock-down; no added drug
Read-out: 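Imaged fluorescence in situ signal for Wolbachia 23S rRNA per DAPI-counted host cell, given as a robust z-score within each plate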
Reading the numbers: Wolbachia per cell robust z: higher = more Wolbachia per host cell than the plate typical
Call rule: 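Hit when robust z is 1.5 or more, or -1.5 or less, in at least two of three replicates; excludes dsRNAs with several or no targets, genes not expressed in JW18 and well A1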
The screen tested about 24,000 reagents; shown is a random part of those that have a named target and a result. Of all reagents, about 1,210 (5%) are marked active. 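Inactive calls also include excluded dsRNAs with several or no targets, genes unexpressed in JW18, and well A1, regardless of score.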 The numbers tell different reagents against one gene apart. A plus sign joins genes that one reagent is predicted to hit.

no.	gene	reagent no.	Wolbachia per cell robust z, rep 1	Wolbachia per cell robust z, rep 2	Wolbachia per cell robust z, rep 3	activity call
1	CG12206	1	-0.847	-0.51	-0.37	inactive
2	CASK	1	1.04	0.474	-0.281	inactive
3	CASK	2	-0.44	-0.0773	0.184	inactive
4	CASK	3	-0.212	0.269	-6.43	inactive
5	CASK	4	-1.87	-0.281	0.103	inactive
6	CASK	5	-0.852	-0.773	-0.673	inactive
7	CG7443	1	1.81	1.06	0.714	inactive
8	side-III	1	-7.15	0.478	-0.34	inactive
9	side-III	2	-0.121	0.568	-0.46	inactive
10	side-III	3	-0.582	-0.81	-0.983	inactive
11	side-III	4	0.38	-0.247	0.409	inactive
12	Non3	1	-1.16	0.0353	-0.492	inactive
13	Sply	1	-1.8	0.112	1.06	inactive
14	Sply	2	0.945	0.765	0.819	inactive
15	CalpC	1	0.52	-2.41	-1.07	inactive
16	CG32436	1	-0.47	0.421	0.312	inactive
17	CG32436	2	-4.33	-9.92	-6.11	active
18	CG7071 + Muted	1	0.205	-1.78	-0.721	inactive
19	CG33199 + CG8229	1	-3.47	-2.61	-1.36	inactive
20	CG33199 + CG8229	2	-1.08	0.209	0.376	inactive
21	barc	1	-2.39	-0.886	-0.447	inactive
22	AP-2mu	1	0.883	-0.197	0.231	inactive
23	AP-2mu	2	0.866	1.04	1.23	inactive
24	spen	1	0.603	0.574	0.61	inactive
25	spen	2	0.174	-0.177	-2.04	inactive
26	CG6923	1	0.888	0.446	-0.0891	inactive
27	CG6923	2	-0.596	-0.223	-1.35	inactive
28	CG31098	1	0.109	-2.1	-4.12	active
29	Pal1 + Pdrg1	1	-2.13	0.332	0.457	inactive
30	janA	1	-0.44	-3.44	-0.605	inactive
31	janA	2	-0.238	-1.17	-0.405	inactive
32	egg	1	0.413	-0.634	-1.96	inactive
33	egg	2	0.429	1.08	0.358	inactive
34	egg	3	-0.328	2.23	0.98	inactive
35	CG33772	1	0.489	1.26	2.11	inactive
36	CG8300	1	1.3	1.37	0.712	inactive
37	CG8300	2	0.0243	0.809	0.257	inactive
38	CG3906	1	-5.29	-0.607	-3.3	inactive
39	CG3906	2	-0.138	-0.202	0.554	inactive
40	Lmpt	1	-0.0449	0.114	0.847	inactive
41	Lmpt	2	-1.69	-1.76	0.326	active
42	Lmpt	3	0.0131	-1.03	-1.85	inactive
43	Lmpt	4	-0.905	-0.639	0.169	inactive
44	Lmpt	5	1.33	-2.59	1.03	inactive
45	Lmpt	6	-1.54	0.965	-0.658	inactive
46	Lmpt	7	0.266	0.637	0.364	inactive
47	Lmpt	8	1.07	-0.0922	0.573	inactive
48	Lmpt	9	-0.0118	1.11	0.303	inactive
49	Lmpt	10	1.03	0.314	1.59	inactive
50	CG32147	1	0.638	-0.247	-0.733	inactive
51	CG32147	2	0.696	-0.0178	0.967	inactive
52	CG32100	1	0.307	-0.427	-4.72	inactive
53	CG32100	2	0.357	-0.193	-0.0203	inactive
54	ThrRS	1	-1.58	-1.83	-5.39	active
55	CG11906	1	1.15	0.529	1.08	inactive
56	CAH15	1	0.46	-4.05	0.156	inactive
57	CAH15	2	-0.632	-1.12	-0.629	inactive
58	halo	1	-8.52	-1.24	0.981	inactive
59	halo	2	0.484	-0.453	-0.319	inactive
60	Edc3	1	0.013	-1.39	-1.91	inactive
61	Edc3	2	-1.46	-0.539	-1.63	inactive
62	BthD	1	0.109	-2.54	0.139	inactive
63	BthD	2	-1.13	-0.325	0.19	inactive
64	CG11122	1	-0.671	1.01	-3.78	inactive
65	CG11122	2	0.837	0.377	0.27	inactive
66	CG13609	1	0.537	0.8	-0.0305	inactive
67	CG13609	2	0.293	0.576	0.385	inactive
68	Gr28a	1	-1.14	0.397	2.02	inactive

10 of these entries, set out differently.
AP-2mu #2 | Wolbachia per cell robust z, rep 1 = 0.866; Wolbachia per cell robust z, rep 2 = 1.04; Wolbachia per cell robust z, rep 3 = 1.23; activity call = inactive
spen #1 | Wolbachia per cell robust z, rep 1 = 0.603; Wolbachia per cell robust z, rep 2 = 0.574; Wolbachia per cell robust z, rep 3 = 0.61; activity call = inactive
spen #2 | Wolbachia per cell robust z, rep 1 = 0.174; Wolbachia per cell robust z, rep 2 = -0.177; Wolbachia per cell robust z, rep 3 = -2.04; activity call = inactive
CG6923 #1 | Wolbachia per cell robust z, rep 1 = 0.888; Wolbachia per cell robust z, rep 2 = 0.446; Wolbachia per cell robust z, rep 3 = -0.0891; activity call = inactive
CG6923 #2 | Wolbachia per cell robust z, rep 1 = -0.596; Wolbachia per cell robust z, rep 2 = -0.223; Wolbachia per cell robust z, rep 3 = -1.35; activity call = inactive
CG31098 | Wolbachia per cell robust z, rep 1 = 0.109; Wolbachia per cell robust z, rep 2 = -2.1; Wolbachia per cell robust z, rep 3 = -4.12; activity call = active
Pal1 + Pdrg1 | Wolbachia per cell robust z, rep 1 = -2.13; Wolbachia per cell robust z, rep 2 = 0.332; Wolbachia per cell robust z, rep 3 = 0.457; activity call = inactive
janA #1 | Wolbachia per cell robust z, rep 1 = -0.44; Wolbachia per cell robust z, rep 2 = -3.44; Wolbachia per cell robust z, rep 3 = -0.605; activity call = inactive
janA #2 | Wolbachia per cell robust z, rep 1 = -0.238; Wolbachia per cell robust z, rep 2 = -1.17; Wolbachia per cell robust z, rep 3 = -0.405; activity call = inactive
egg #1 | Wolbachia per cell robust z, rep 1 = 0.413; Wolbachia per cell robust z, rep 2 = -0.634; Wolbachia per cell robust z, rep 3 = -1.96; activity call = inactive
